Data on two sequences can be found in article doi:10.1101/2020.11.06.371997.

In this data set the target is T1, Trf2ΔN-FG3 (UmTrf2) (Ustilago maydis) (UniProt A0A0D1E1Z3).
T1 sequence (looked up): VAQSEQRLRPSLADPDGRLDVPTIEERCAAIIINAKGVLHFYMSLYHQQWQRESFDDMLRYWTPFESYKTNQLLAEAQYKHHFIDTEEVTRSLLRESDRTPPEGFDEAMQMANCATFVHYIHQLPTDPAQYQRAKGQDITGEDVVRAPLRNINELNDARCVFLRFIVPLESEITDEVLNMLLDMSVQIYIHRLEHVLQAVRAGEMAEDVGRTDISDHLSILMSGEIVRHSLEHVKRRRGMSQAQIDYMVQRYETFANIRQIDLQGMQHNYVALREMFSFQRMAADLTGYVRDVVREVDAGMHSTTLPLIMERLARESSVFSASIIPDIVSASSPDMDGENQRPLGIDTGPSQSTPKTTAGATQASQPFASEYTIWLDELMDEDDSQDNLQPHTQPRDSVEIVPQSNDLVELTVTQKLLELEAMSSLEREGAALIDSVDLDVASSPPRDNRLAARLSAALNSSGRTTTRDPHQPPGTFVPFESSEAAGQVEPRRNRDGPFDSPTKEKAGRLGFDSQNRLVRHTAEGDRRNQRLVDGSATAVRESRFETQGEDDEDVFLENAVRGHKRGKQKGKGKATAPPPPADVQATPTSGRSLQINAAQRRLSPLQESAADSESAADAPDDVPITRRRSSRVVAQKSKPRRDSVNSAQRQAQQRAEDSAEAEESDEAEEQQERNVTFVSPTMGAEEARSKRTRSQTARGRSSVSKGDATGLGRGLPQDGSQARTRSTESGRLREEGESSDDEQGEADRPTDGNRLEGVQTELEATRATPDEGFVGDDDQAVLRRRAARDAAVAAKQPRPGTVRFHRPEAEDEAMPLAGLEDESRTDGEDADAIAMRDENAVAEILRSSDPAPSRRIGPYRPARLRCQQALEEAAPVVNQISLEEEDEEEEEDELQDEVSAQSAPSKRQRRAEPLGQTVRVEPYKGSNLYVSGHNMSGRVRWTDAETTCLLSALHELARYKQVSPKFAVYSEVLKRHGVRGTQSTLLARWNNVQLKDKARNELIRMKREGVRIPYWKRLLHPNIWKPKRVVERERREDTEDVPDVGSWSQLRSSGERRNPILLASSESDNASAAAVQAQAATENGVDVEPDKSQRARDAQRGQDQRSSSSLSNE
As to the kind of experiment: competition with a labelled probe. As to conditions: unlabeled competitor, residues 415-1528.

Construct, isoform or probe ends are uncertain for at least one entry. At least one verdict was read from the data and is not stated in words by the source. Tags and fusion partners may be left off the protein sequences shown.

In the case of “TTAGGGTTAGGGTTAGGGTTAGGG (double strand) [TTAGGG4 duplex]”, the binding result is on record as “binds”.

For the sequence “TTAGTCAGGGTTAGTCAGGGTTAGT (double strand) [Yl TEL duplex]”, under “prefers canonical repeat”, the binding result is given as “binds”.
